The values below come from ChEMBL document CHEMBL1152450 (J Med Chem, 2009).

The IC50 is the point on the concentration scale where inhibition reaches its midpoint. A lower IC50 goes with higher potency.

This assay can be described thus: Inhibition of SARS coronavirus PLpro residues 1541-1855 expressed in Escherichia coli. Also noted: species or system Severe acute respiratory syndrome-related coronavirus.
With `C[C@@H](NC(=O)c1ccc(N)cc1)c1cccc2ccccc12`, half-maximal inhibition (IC50) was put at 24.8 µM.
`COc1cccc(C(=O)N[C@H](C)c2ccc3ccccc3c2)c1` showed an IC50 of 13.5 µM.
`COc1ccccc1C(=O)N[C@H](C)c1ccc2ccccc2c1` came in with an IC50 of 90 µM.
